Results: patent publication US8475804B2 (priority 2009, dated 2013)

Test system: Ebola virus
Assay type: cell-based, Ebolavirus (EBOV)

Row | Substance | IC50 [µM] | Max Effect
1 | Gramicidin | 1.7 | –
2 | Sodium Vanadate | – | 0.525
